The source of these data is publication PMC8092843 (Journal of Virology, 2021).

SMILES strings stand for the structures.

This assay deals with HLA-A*02:01 molecule (UniProt P01899+P04439, D140Y/D185E/D98H/E176V/G131W/I119V/I121R/I166T/N151K/N90K/Q86G/Q94H/R138H/R169H). Nature of the assay: cell-based. It is filed as binding, human. The note with it: SD.
Consider `CC(C)C[C@H](NC(=O)[C@@H](NC(=O)[C@@H](NC(=O)[C@@H](NC(=O)[C@H](Cc1ccccc1)NC(=O)[C@H](CCCNC(=N)N)NC(=O)[C@H](CC(N)=O)NC(=O)[C@H](CC(C)C)NC(=O)[C@@H](N)Cc1ccccc1)[C@@H](C)O)[C@@H](C)O)[C@@H](C)O)C(=O)O`, for which a half-maximal effect (EC50) was put at 79 ± 9.6 µM.
On to `CC(C)C[C@H](NC(=O)[C@H](CO)NC(=O)[C@@H]1CCCN1C(=O)[C@H](CC(C)C)NC(=O)[C@H](CC(C)C)NC(=O)[C@@H](N)Cc1ccccc1)C(=O)N[C@@H](C)C(=O)N[C@H](C(=O)N[C@H](C(=O)O)C(C)C)[C@@H](C)O`, for which the midpoint of the response, the EC50, lay at 15 ± 4.4 µM.
`CC(C)C[C@H](NC(=O)[C@H](Cc1c[nH]c2ccccc12)NC(=O)[C@H](C)NC(=O)[C@H](CC(C)C)NC(=O)[C@@H](N)C(C)C)C(=O)N[C@@H](Cc1ccc(O)cc1)C(=O)N[C@@H](C)C(=O)N[C@@H](C)C(=O)N[C@H](C(=O)O)C(C)C` [pp1a-3467]: the EC50 was 45 ± 10.8 µM.
